A mixed list of measured activities; the numbers were collected in NIAID ChemDB.

All rows: cytotoxicity tests; cell line: PBMC; read-out: CC50

Blank or dashed fields: not listed here. Neighbouring rows are from separate reports. CCn: concentration that lowers growth or viability of the cells by n%.

compound,read by,result
Cc1cn([C@H]2C[C@H](N=[N+]=[N-])[C@@H](COC(=O)C(=O)N[C@H](C(=O)O)C(C)C)O2)c(=O)[nH]c1=O,trypan blue,100 µM
Cc1cn([C@H]2C[C@H](N=[N+]=[N-])[C@@H](CO)O2)c(=O)[nH]c1=O,tetrazolium,95.6 µM
Cc1ccc2c(c1)c(=O)c(C(=O)Nc1ccc(Cl)cc1)cn2[C@@H]1O[C@H](CO)[C@@H](O)[C@H]1O,XTT,>1000 µg/mL
COC(=O)c1cccc(Cn2ccc3ccc(-c4ccc5ccn(Cc6cccc(C(=O)O)c6)c5c4)cc32)c1,MTS,11.6 µM
C/C=C(/C)C(=O)O[C@H]1C(C)=C[C@]23C(=O)[C@@H](C=C(CO)[C@@H](O)[C@]12O)[C@H]1[C@@H](C[C@H]3C)C1(C)C,trypan blue,>0.025 µM
COc1ccc(C(C)(C)CCCC(C)C)c(OC)c1O,XTT,50.9 µM
Cc1cc(C)c(Cn2c(=O)ccn(CC#N)c2=O)c(C)c1,-,>441 µM
Cc1cn([C@H]2C[C@@H](CI)[C@@H](CO)O2)c(=O)[nH]c1=O,trypan blue,>100 µM
O[C@]12C=C(Cc3cc4cc(F)ccc4[nH]3)[C@@H]3CCN(CCCC/C=C\CC1)C[C@@]31C[C@@H]3CCCCCCN3C12,trypan blue,4 µM
Cc1cn([C@H]2C[C@H](N=[N+]=[N-])[C@@H](COC(=O)c3ccncc3)O2)c(=O)[nH]c1=O,sulforhodamine,250 µM
COc1ccc(C(C)(C)CCCC(C)C)c(OC)c1,XTT,>200 µM
Cc1cnc(CC2=C[C@@]3(O)CC/C=C\CCCCN4CC[C@@H]2[C@]2(C[C@@H]5CCCCCCN5C23)C4)cn1,trypan blue,13.5 µM
Cc1cc(C)cc(Cn2c(=O)ccn(CCc3ccccc3)c2=O)c1,-,80 µM
CC(C)CCCC(C)(C)c1ccc(O)cc1O,XTT,44.6 µM
Cc1cn([C@H]2C[C@H](N=[N+]=[N-])[C@@H](CO)O2)c(=O)[nH]c1=O,-,4.24 µM
O=C(O)c1cc(-n2cccc2)ccc1Cl,trypan blue,>500 µg/mL
Nc1ncnc2c1ncn2CCOCP(=O)(O)O,MTT / absorbance,>100 µM
CC(C)OC(=O)OCOP(=O)(CO[C@H](C)Cn1cnc2c(N)ncnc21)OCOC(=O)OC(C)C,visual reading,14.56 µM
CC[C@H](C)[C@H](NC(=O)C(=O)OC[C@H]1O[C@@H](n2cc(C)c(=O)[nH]c2=O)C[C@@H]1N=[N+]=[N-])C(=O)O,trypan blue,200 µM
C[C@H](Cn1cnc2c(N)ncnc21)OCP(=O)(O)O,visual reading,>25 µM
O[C@]12C=C(Cc3nccc4ccccc34)[C@@H]3CCN(CCCC/C=C\CC1)C[C@@]31C[C@@H]3CCCCCCN3C12,trypan blue,4.7 µM
O=c1ccn(Cc2c(F)cccc2F)c(=O)n1Cc1c(F)cccc1F,-,149 µM
CCCCCCCCCCCCSCC(COP(=O)([O-])OCC[N+](C)(C)C)OCCCCCCCCC(=O)OCC(=O)OC[C@H]1O[C@@H](n2cc(C)c(=O)[nH]c2=O)C[C@@H]1N=[N+]=[N-],trypan blue,>100 µM
Cc1ccc(C)c(Cn2c(=O)ccn(CC#N)c2=O)c1,-,>464 µM
Nc1nncc2c([C@H]3CC[C@@H](CCP(=O)(O)O)C3(F)F)c[nH]c12,MTT / absorbance,35 µM
Cc1cc(Cl)nc(C)c1C(=O)NCC[C@@H](C)N1CCC(N(Cc2ccsc2)C(=O)NCCCC(=O)O)CC1,MTS,>35.5 µM
Cc1cn([C@H]2C[C@H](N=[N+]=[N-])[C@@H](CO)O2)c(=O)[nH]c1=O,trypan blue,>100 µM
Cc1ccc(Cn2c(=O)ccn(CC#N)c2=O)cc1,-,>490 µM
Cc1ccnc2c1NC(=O)c1cccnc1N2C1CC1,tetrazolium,5.1 µM
Cc1cn([C@H]2C[C@H](N=[N+]=[N-])[C@@H](COC(=O)C(=O)N[C@@H](CC(C)C)C(=O)O)O2)c(=O)[nH]c1=O,sulforhodamine,300 µM
Cc1cn([C@H]2C[C@H]3COC[C@H]3O2)c(=O)[nH]c1=O,trypan blue,>100 µM

Again, the opening 2 rows:

compound | read by | result
Cc1cn([C@H]2C[C@H](N=[N+]=[N-])[C@@H](COC(=O)C(=O)N[C@H](C(=O)O)C(C)C)O2)c(=O)[nH]c1=O | trypan blue | 100 µM
Cc1cn([C@H]2C[C@H](N=[N+]=[N-])[C@@H](CO)O2)c(=O)[nH]c1=O | tetrazolium | 95.6 µM